Anti-infective test results gathered from many reports (values: NIAID ChemDB through PubChem).

All rows: whole-cell or culture tests; organism: Herpes simplex virus 1

Rows are shuffled and stem from different studies.

SMILES,endpoint,tested at,method,strain or isolate,cells,result
CCn1nc(-c2ccc(Cn3ccc4ccccc43)cc2)nc1C,MIC,,,TK (KOS ACV),,80 µg/mL
COc1cccc(-c2cc3c(-c4ccnc(NC5CCCC5)n4)ccc(NC4CCCC4)n3n2)c1,EC50,,antigen / hybridisation,SC16,VERO 76,0.2 µM
CCc1cn([C@H]2C[C@H](O)[C@@H](CO)O2)c(=O)[nH]c1=O,MIC,,,WT-34,,3.2 µg/mL
Nc1nc2c(ncn2COC(CO)CO)c(=O)[nH]1,EC50,,PCR,97-1716,,3.9 µM
CN(C)c1cccc(-c2cc3c(-c4ccnc(NC5CCC5)n4)ccc(NC4CCC4)n3n2)c1,EC50,,antigen / hybridisation,SC16,VERO 76,1.7 µM
CCSC1NN=C(Cc2nc(C)n(C)n2)N1c1ccccc1,MIC,,,TK (KOS ACV),,80 µg/mL
c1cc(NC2CCCCC2)cc(-c2cc3c(-c4ccnc(NC5CCC5)n4)ccc(NC4CCC4)n3n2)c1,EC50,,antigen / hybridisation,SC16,VERO 76,3.24 µM
CCN(C(=O)C(C)(C)Nc1nc2ccc(NC(=O)OC(C)(C)C)c(C)c2c(=O)o1)c1cccnc1,EC90,,plaque count,,VERO,>12.5 µM
COCc1cn([C@@H]2O[C@H](CO)[C@@H](O)[C@@H]2O)c(=O)[nH]c1=O,MIC,,,VR-3,,100 µg/mL
O=c1[nH]c(=O)n([C@H]2C[C@H](O)[C@@H](CO)O2)cc1/C=C/C(F)(F)F,EC99,,virus yield,B2006 (TK-),PRK,>100 µg/mL
Cc1cn([C@@H]2O[C@H](CO)[C@@H](O)[C@@H]2O)c(=O)[nH]c1=O,MIC,,,WT-20,,100 µg/mL
Cc1c(NC(=O)OC(C)(C)C)ccc2nc(N3CCCC[C@H]3C(=O)NCc3cccnc3)oc(=O)c12,EC90,,plaque count,,VERO,>12.5 µM
CC(=O)OCCOCN1C(C)=CC(N)=[N+](c2ccccc2)S1(=O)=O,EC50,,,B206 (TK-),E6SM,>400 µg/mL
O=c1[nH]c(=O)n([C@H]2C[C@H](O)[C@@H](CO)O2)cc1CCCl,inhibition,0.14 µg/mL,cytopathic effect,KOS,PRK,≥25%
Cc1c(NC(=O)c2ccco2)ccc2nc(NC(C)(C)C(=O)N(C)CCc3ccccn3)oc(=O)c12,EC90,,plaque count,,VERO,>12.5 µM
CC(=O)Nc1cccc(-c2cc3c(-c4ccnc(NC5CCCC5)n4)ccc(NC4CCCC4)n3n2)c1,EC50,,antigen / hybridisation,SC16,VERO 76,2.26 µM
Nc1ccn([C@@H]2O[C@H](CO)[C@@H](O)[C@@H]2O)c(=O)n1,MIC,,,NOL,,4.4 µg/mL
Fc1ccc(-c2cc3c(-c4ccnc(NC5CCCC5)n4)ccc(NC4CCC4)n3n2)cc1,EC50,,antigen / hybridisation,SC16,VERO 76,0.41 µM
CC(=O)OCCOCN1C=C(C#N)C(N)=NS1(=O)=O,EC50,,,KOS,E6SM,>400 µg/mL
Cc1c(NC(=O)OC(C)(C)C)ccc2nc(N(CCc3ccccc3)C(=O)NCc3cccnc3)oc(=O)c12,EC90,,plaque count,,VERO,23.8 µM
Nc1nc2c(ncn2COCCO)c(=O)[nH]1,EC99,,virus yield,SC16,MRC-5,1.1 µg/mL
Nc1nc2c(ncn2COC(CO)CO)c(=O)[nH]1,inhibition,0.5 µM,plaque count,SC16,WI-38,90%
CCC(C)Oc1ccc(-c2cc3c(-c4ccnc(NC5CCCC5)n4)ccc(NC4CCCC4)n3n2)cc1,EC50,,antigen / hybridisation,SC16,VERO 76,0.58 µM
Nc1nc(=O)n([C@@H]2O[C@H](CO)[C@@H](O)[C@@H]2F)cc1I,inhibition,0.02 µg/mL,cytopathic effect,KOS,PRK,≥25%
CCn1nc(CC(=O)NN=C(C)C)nc1C,MIC,,,KOS,,>400 µg/mL
CCCCCCCCCCCCCCCCOCCCOP(=O)(O)CO[C@H](CO)Cn1cnc2c(N)ncnc21,EC90,,hybridisation,,MRC-5,0.0004 µM
CCCCC(C)(C)[C@H](O)/C=C/[C@H]1C=CC(=O)[C@@H]1CCCCCCC(=O)O,EC50,,hybridisation,H198,VERO,3.8 µg/mL
c1cc(-c2ccc(NC3CCCC3)n3nc(-c4ccc(OCC5CCC5)cc4)cc23)nc(NC2CCCC2)n1,EC50,,antigen / hybridisation,SC16,VERO 76,0.35 µM
O=c1[nH]c(=O)n([C@@H]2O[C@H](CO)[C@@H](O)[C@@H]2F)cc1I,inhibition,0.01 µg/mL,cytopathic effect,,HEP-2,≥25%
CCCCc1cn([C@@H]2O[C@H](CO)[C@@H](O)[C@@H]2O)c(=O)[nH]c1=O,MIC,,,VR-3,,100 µg/mL
CCOC(=O)C1=CN(COCCOC(C)=O)S(=O)(=O)N=C1N,EC50,,,KOS,E6SM,>400 µg/mL
Cc1cc(C(=O)Nc2ccc3nc(NC(C)(C)C(=O)N(C)CCc4ccccn4)oc(=O)c3c2C)c(C(F)(F)F)o1,EC90,,plaque count,,VERO,>12.5 µM
C/C=C/c1cn([C@H]2C[C@H](O)[C@@H](CO)O2)c(=O)[nH]c1=O,inhibition,10 µM,plaque count,F-2,VERO,68%
NNC(=O)Cc1nc2n(n1)CCCCC2,MIC,,,TK (KOS ACV),,>400 µg/mL
c1cc(OCC2CC2)cc(-c2cc3c(-c4ccnc(NC5CCCC5)n4)ccc(NC4CCCC4)n3n2)c1,EC50,,antigen / hybridisation,SC16,VERO 76,0.17 µM
CC(=O)OCCOCN1C=CC(=O)N(COCCO)S1(=O)=O,EC50,,,KOS,E6SM,>400 µg/mL
CCN(C(=O)C1(Nc2nc3ccc(NC(=O)OC(C)(C)C)c(C)c3c(=O)o2)CCCC1)c1cccnc1,EC90,,plaque count,,VERO,>12.5 µM
CC(=O)OCCOCN1C=CC(=O)NS1(=O)=O,EC50,,,McIntyre,E6SM,>400 µg/mL
C/C=C/c1cn([C@@H]2O[C@H](CO)[C@@H](O)[C@@H]2O)c(=O)[nH]c1=O,inhibition,250 µM,plaque count,C42PFA-R,VERO,65%
O=c1[nH]c(=O)n([C@H]2C[C@H](O)[C@@H](CO)O2)cc1/C=C/Br,inhibition,0.001 µg/mL,cytopathic effect,,VERO,≥25%
CC(=O)OCCOCN1C(=N)/C(=C(\C)O)C(N)=NS1(=O)=O,EC50,,,KOS,E6SM,>400 µg/mL

The last 5 rows once more:

SMILES	endpoint	tested at	method	strain or isolate	cells	result
CCN(C(=O)C1(Nc2nc3ccc(NC(=O)OC(C)(C)C)c(C)c3c(=O)o2)CCCC1)c1cccnc1	EC90		plaque count		VERO	>12.5 µM
CC(=O)OCCOCN1C=CC(=O)NS1(=O)=O	EC50			McIntyre	E6SM	>400 µg/mL
C/C=C/c1cn([C@@H]2O[C@H](CO)[C@@H](O)[C@@H]2O)c(=O)[nH]c1=O	inhibition	250 µM	plaque count	C42PFA-R	VERO	65%
O=c1[nH]c(=O)n([C@H]2C[C@H](O)[C@@H](CO)O2)cc1/C=C/Br	inhibition	0.001 µg/mL	cytopathic effect		VERO	≥25%
CC(=O)OCCOCN1C(=N)/C(=C(\C)O)C(N)=NS1(=O)=O	EC50			KOS	E6SM	>400 µg/mL

Percent inhibition refers to the dose given; in toxicity tests it is the harm to the cells. ECn: concentration that inhibits the pathogen or its effect by n%. An empty or dashed field is not shown.